Measurements taken from patent US20080145339.
Construct, isoform or probe ends are uncertain for at least one entry.

Target: AAV Rep78 wild-type (adeno-associated virus 2) (UniProt Q89268)
Experiment: EMSA
Conditions: purified recombinant protein, protein details: MBP fusion (pMALc2, amylose purified), label: 32P

Row | Sequence | binding result (10 mM MgCl2, poly(dI-dC), weaker than TR in competition (FIG. 8)) | binding result (strong target, variant of HPV-16 p97 nt 14-106, only the site is given)
1 | ATGTATAAAACTAAGGGCGTAACCGAAATCGGTTGAACCGAAACCGGTTAGTATAAAAGCAGACATTTTATGCACCAAAAGAGAACTGCAATG (double strand) [HPV-16 p97 nt 14-106] | binds | –
2 | ATGTATAAAACTAAGGGCGTAACCGAAATCGGTTGAACCGAAA (double strand) [HPV-16 p97 nt 14-56] | – | binds
